Results as given in patent US5605926A.
Like-named read-outs stand apart in the source and are kept apart here.

Chains of the proteins cited; added tags and fusions are not shown. Residues count along the entry.
UniProt P04584, 514-612 limits assumed: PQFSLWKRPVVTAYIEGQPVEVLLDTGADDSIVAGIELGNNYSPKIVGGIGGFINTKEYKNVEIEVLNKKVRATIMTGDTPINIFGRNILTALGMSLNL

Tests used:
[1] = tested on: HIV; test: HIV infection in cell culture, H-9; conditions: read-out: IC50 [H-9]; HIV-infected H-9 cells; 50% suppression of virus-induced syncytia
[2] = target: HIV-1 protease (Human immunodeficiency virus type 1 group M subtype B, UniProt P04585); test: HIV protease enzyme assay (RP-HPLC), HIV-1
Procedure: (§1) The results of the examples shown below were determined by the HIV test system described in the following literature references [cf. Hansen, J., Billich, S., Schulze, T., Sukrow, S. and Molling, K. (1988), EMBO Journal, Vol. 7, No. 6, pp. 1785-1791]: Purified HIV protease was incubated with synthetic peptide which imitated a cleavage site in the Gag precursor protein and represented an in vivo cleavage site of the HIV protease. The resulting cleavage products of the synthetic peptide were analyzed by means of reverse phase high performance liquid chromatography (RP-HPLC). The IC50 values given relate to the substance concentration which causes a 50% inhibition of the protease activity under the abovementioned test conditions.
(§2) Enzyme assay, HIV-1/HIV-2

[3] = tested on: HIV; test: HIV infection in cell culture, syncytia formation, PBL; conditions: read-out: IC50 [PBL]; HIV-infected normal human blood lymphocytes; 50% suppression of virus-induced syncytia
[4] = target: HIV-2 protease (Human immunodeficiency virus type 2 subtype A, UniProt P04584); test: HIV protease enzyme assay (RP-HPLC), HIV-2; conditions: read-out: IC50 (RP-HPLC) HIV-2, purified HIV protease, synthetic Gag cleavage-site peptide
Procedure: as §1, §2

[5] = read-out: IC50 (RP-HPLC) HIV-1, purified HIV protease, synthetic Gag cleavage-site peptide, tested form: 2HCl
[6] = read-out: IC50 (RP-HPLC) HIV-1, purified HIV protease, synthetic Gag cleavage-site peptide

NC(=O)C[C@H](NC(=O)c1ccc2ccccc2n1)C(=O)N[C@@H](Cc1ccccc1)C(O)CN1CCC[C@H]1C(F)(F)F (single isomer, unassigned) [37]
IC50 [1]: 2500 nM

CC(C)[C@H](NC(=O)[C@H](Cc1cccc2ccccc12)CS(=O)(=O)C(C)(C)C)C(=O)N[C@@H](Cc1ccccc1)C(O)CN1CCCC[C@H]1C(F)(F)F (stereo partly shown)
IC50 [1]: 1100 nM

CC(C)[C@H](NC(=O)[C@@H](N)Cc1ccccc1)C(=O)N[C@@H](Cc1ccccc1)C(O)CN1CCC[C@H]1C(F)(F)F (stereo partly shown)
IC50 [2, 5]: 1 nM

CC(C)[C@H](N)C(=O)N[C@@H](Cc1ccccc1)C(O)CN1CCC[C@H]1C(F)(F)F (stereo partly shown)
IC50 [2, 5]: 0.1 nM

CC(C)[C@H](NC(=O)[C@H](Cc1cccc2ccccc12)CS(=O)(=O)C(C)(C)C)C(=O)N[C@@H](Cc1ccccc1)C(O)CN1CCc2ccccc2C1C(F)(F)F (stereo partly shown)
IC50 [2, 6]: 1 nM

CC(C)[C@H](NC(=O)[C@H](Cc1ccccc1)NC(=O)[C@H](CO)NC(=O)OC(C)(C)C)C(=O)N[C@@H](Cc1ccccc1)C(O)CN1CCC[C@H]1C(F)(F)F (stereo partly shown)
IC50 [3]: 5000 nM

CC[C@H](C)[C@H](NC(=O)[C@H](Cc1cccc2ccccc12)CS(=O)(=O)C(C)(C)C)C(=O)N[C@@H](Cc1ccccc1)C(O)CN1CCC[C@H]1C(F)(F)F (stereo partly shown)
IC50 [2, 6]: 10 nM | IC50 [3]: 1400 nM

CC(C)[C@H](NC(=O)[C@H](Cc1cccc2ccccc12)CS(=O)(=O)C(C)(C)C)C(=O)N[C@@H](Cc1ccccc1)C(O)CN1CCC[C@H]1C(F)(F)F (stereo partly shown)
IC50 [3]: 140 nM | IC50 [4]: 1 nM | IC50 [1]: 530 nM

CC(C)C(NCC(O)[C@H](Cc1ccccc1)NC(=O)[C@@H](NC(=O)[C@H](Cc1cccc2ccccc12)CS(=O)(=O)C(C)(C)C)C(C)C)C(F)(F)F (stereo partly shown)
IC50 [2, 6]: 10 nM

CC(C)(C)S(=O)(=O)C[C@@H](Cc1cccc2ccccc12)C(=O)N[C@@H](CC(N)=O)C(=O)N[C@@H](Cc1ccccc1)[C@H](O)C(O)CN1CCC[C@H]1C(F)(F)F (stereo partly shown)
IC50 [2, 6]: 10 nM
